## Potato spindle tuber viroid, loop 15: variant abundance in plants

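A pool of all variants was put on leaves of three Nicotiana benthamiana plants. Samples came from the inoculated region at 5 days, the leaf margin at 10 and upper systemic leaves at 12.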

PSTVd intermediate strain, loop 15: wild type GGAAACCGCUACUAC, pool pattern GGAAACCGNNNNNNC; upper and lower strand joined, each 5' to 3', the first 7 letters being the upper strand, closing pairs included.

Values are reads per thousand in the sample; higher means more abundant, 0 means not found.
Each value is the mean of three plants.
"Pool" is the share in the plasmid pool used as inoculum, on the same scale.
The inoculated region was read from the minus strand, the other sites from the plus strand.
IR is the inoculated region, LM the leaf margin, Sys the systemic leaves.
With 43,870-66,106 reads a sample, very low values are single reads.
For reference, wild type rose from 33.9 per thousand in the pool to 202, 200, 159 (inoculated region), 724, 746, 710 (leaf margin) and 856, 883, 880 (systemic leaves).
The authors trace changes outside the varied positions to PCR and sequencing errors or to mutation in the plant; presence does not show that a variant is infectious alone.

With GGAAACCGAAAGUGC (pool 0.256) the assay gave IR 0.313; LM 0.0659; Sys 0.0743.
With GGAAACCGAAUCGAC (pool 0.288) the assay gave IR 0.0867; LM 0.0121; Sys 0.
With GGAAACCGAAUGUGC (pool 0.272) the assay gave IR 0.172; LM 0.0121; Sys 0.
With GGAAACCGACCAGAC (pool 0.240) the assay gave IR 0.113; LM 0.0195; Sys 0.00537.
With GGAAACCGACCUCUC (pool 0.272) the assay gave IR 0.0868; LM 0; Sys 0.
With GGAAACCGACUAAUC (pool 0.256) the assay gave IR 0.0732; LM 0.0134; Sys 0.
With GGAAACCGAGAAAAC (pool 0.256) the assay gave IR 0.352; LM 1.34; Sys 0.0322.
With GGAAACCGAGACUAC (pool 0.288) the assay gave IR 0.321; LM 0.118; Sys 0.0746.
With GGAAACCGAGCAUGC (pool 0.304) the assay gave IR 0.0778; LM 0.00742; Sys 0.
With GGAAACCGAGUGAAC (pool 0.160) the assay gave IR 0.101; LM 0.00539; Sys 0.
With GGAAACCGAGUUUUC (pool 0.240) the assay gave IR 0.120; LM 0.0134; Sys 0.0104.
With GGAAACCGAUCAACC (pool 0.144) the assay gave IR 0.123; LM 0; Sys 0.
With GGAAACCGAUUCUCC (pool 0.240) the assay gave IR 0.0633; LM 0.0141; Sys 0.00537.
With GGAAACCGCAAUAUC (pool 0.192) the assay gave IR 0.117; LM 0.0215; Sys 0.
With GGAAACCGCUAUAGC (pool 0.256) the assay gave IR 0.0677; LM 0; Sys 0.00760.
With GGAAACCGCUUAUUC (pool 0.304) the assay gave IR 0.494; LM 0.0798; Sys 0.436.
With GGAAACCGGACCCGC (pool 0.320) the assay gave IR 0.134; LM 0.0121; Sys 0.
With GGAAACCGGACUUAC (pool 0.144) the assay gave IR 0.101; LM 0.00539; Sys 0.
With GGAAACCGGCAAGUC (pool 0.128) the assay gave IR 0.109; LM 0; Sys 0.
With GGAAACCGGGCAGAC (pool 0.272) the assay gave IR 0.141; LM 0.0121; Sys 0.
With GGAAACCGGGCCGAC (pool 0.160) the assay gave IR 0.0890; LM 0.00668; Sys 0.00760.
With GGAAACCGGGUGUUC (pool 0.128) the assay gave IR 0.0902; LM 0.0134; Sys 0.
With GGAAACCGUCACGAC (pool 0.352) the assay gave IR 0.171; LM 0.0267; Sys 0.00537.
With GGAAACCGUGAGCCC (pool 0.208) the assay gave IR 0.0642; LM 0.0128; Sys 0.
With GGAAACCGUGCUGGC (pool 0.288) the assay gave IR 0.0640; LM 0.0187; Sys 0.0183.
With GGAAACCGUUAUAUC (pool 0.192) the assay gave IR 0.392; LM 0.0819; Sys 0.0515.
With GGAAACCGUUUUUCC (pool 0.304) the assay gave IR 0.0680; LM 0.00668; Sys 0.

The opening 2 entries, copied out:

With GGAAACCGAAAGUGC (pool 0.256) the assay gave IR 0.313; LM 0.0659; Sys 0.0743.
With GGAAACCGAAUCGAC (pool 0.288) the assay gave IR 0.0867; LM 0.0121; Sys 0.

From the data files of Wu et al. 2024, doi:10.1371/journal.ppat.1012142.